# Percent effect of library compounds

Measurements from “University of Dundee, Small-Polar-MMV Screening Library” (2021), ChEMBL document CHEMBL3988442.

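Whole-cell growth test on Mycobacterium tuberculosis, read after 4 days in a medium based on cholesterol and the lipid DPPC; the read-out is not stated. Concentration: 500 µM. Higher reads as more growth inhibition (inferred: compounds with an IC50 in retests scored well above the rest). Of about 18,000 compounds tested this way, about 900 (5%) reached 50% or more in at least one test.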

Each number is a percent effect as filed. How 0% and 100% were set is not recorded. Most values in the screen are low, and negative values occur. Many other results are left out here, so strong results are more common than in the screen.

structure	Percent Effect
CCCNC(=O)CN(C)Cc1ccco1	34.68%
CC(=O)NCCNS(=O)(=O)c1cc(C)ccc1C	21.01%
Cc1cc(C)c(C#N)c(N2C[C@@H]3CCN(C)[C@@H]3C2)n1	-9.268%
CC(=O)c1cccc(C(=O)N2C[C@H](C3CC3)[C@@H](N)C2)c1	-2.264%
Cc1cnc(N2CCCN(CCO)CC2)nc1C	6.196%
Cc1csc(NC(=O)NC(CO)CC(C)C)n1 (centres unmarked)	66.9%
CC(Cc1ccccc1F)C(=O)N1CC[C@H](O)C1 (some centres unmarked)	2.917%
NS(=O)(=O)CCNC(=O)c1ccc(-c2cccs2)s1	-25.58%
CC(=O)c1cc(CN2CC(N3CCOCC3)C2)cs1	1.989%
NCC[C@@H]1CCC(=O)N1	-5.406%
CCC(=O)N1CCCN(C(=O)C(CC)(CC)CN)CC1	-3.475%
CN(C)CCCNC(=O)c1cc2ccccc2[nH]1	16.48%
CC1CCCCN1Cc1nc(-c2ccccn2)no1 (centres unmarked)	9.458%
CCCn1ncc(CN2CCN(S(N)(=O)=O)CC2)c1C	12.02%
Cc1ccc(OC(C)C(=O)NCCCC(N)=O)cc1 (centres unmarked)	11.4%
CNCc1nc(C)no1	2.332%
COC(=O)c1ccc(CSc2nc(N)cc(O)n2)cc1	-5.755%
CCC(=O)NC1CCCc2occc21 (centres unmarked)	-1.093%
Cc1csc(NC(=O)CSc2nccn2C)n1	-11.69%
Cc1ccc(NC(=O)CN2CCCC2)cc1	36.09%
CCC(O)CN1CCN(c2ncccc2Br)CC1 (centres unmarked)	51.77%
CC(C)(C)OC(=O)N1CCN(C2CCC(N)CC2)CC1 (centres unmarked)	56.48%
OC1(Cc2cccnc2)CCNCC1	0.1484%
CCCc1cc(CN(C)C(=O)c2cccs2)n[nH]1	66.92%
CC(NCCN1CCOCC1)C1CCOCC1 (centres unmarked)	8.751%
CCc1n[nH]c(SCC(=O)Nc2ccc(Br)cn2)n1	75.71%
Cc1nn(C)c2c1NC(=O)CO2	-21.4%
COc1cc(CCN)ccc1C	114.3%
COc1ccc(CCN2CCNCC2)cc1	8.484%
CSc1ccc2c(c1)CCN(C(=O)C1CCNC1)C2 (centres unmarked)	43.04%
COc1cc(OC)cc(C2(F)CCNC2)c1 (centres unmarked)	11.69%
NCC1Cc2ccccc21 (centres unmarked)	62.61%
COc1ccc(CC2CCN2)cc1 (centres unmarked)	63.73%
Cc1cc2cc(C(=O)N3CC[C@@H](N)[C@H](O)C3)ccc2o1	2.06%
CC(C)CNC(=O)CNC(=O)NCC1(C)CCCC1	17.01%
COCC1CNCCO1 (centres unmarked)	-6.68%
Cc1occc1C(=O)N1CCN(c2nccs2)CC1	8.246%
Cc1ccc2nc(COCC(=O)NCCN)[nH]c2c1	7.496%
Cn1cc(CN(CCC#N)CCN2CCOCC2)cn1	6.829%
Cc1ccc(CCNC(=O)NC(CO)CC(C)C)cn1 (centres unmarked)	30.78%
CCNC(=O)C(C)Sc1nc(N)c2ccsc2n1 (centres unmarked)	11.7%
O=C(Nc1nc(-c2cccs2)ns1)C1CCCN1 (centres unmarked)	10.14%
CC1CN(c2ccc(CNc3nccs3)cn2)CCO1 (centres unmarked)	39.84%
CNCc1ccc(Cn2ccnc2)cc1	-5.35%
CC(NC(=O)Nc1ccccn1)C1CCN(C)CC1 (centres unmarked)	-9.967%
O=C(CCc1ccc(Br)cc1F)NC1CCS(=O)(=O)C1 (centres unmarked)	-17.45%
CCCc1ccc(CN2C[C@H](OCC)[C@@H](O)C2)o1	81.54%
CC[C@@]1(O)CCN(Cc2noc(COC)n2)C[C@H]1O	3.989%
CCSc1nc2ccccc2c(=O)n1CCCO	88.4%
CC(c1ccncc1)N(C)C(=O)c1c[nH]c(=O)c(Cl)c1 (centres unmarked)	6.866%
CCc1cc(C(=O)NC(CC)[C@H]2C[C@H](O)C2)cc(=O)[nH]1 (some centres unmarked)	-5.366%
CC(C)CC(NC(N)=O)C(=O)Nc1cc(F)cc(F)c1 (centres unmarked)	51.95%
O=C1CCC(C(=O)NCCc2ccc(F)cc2)N1 (centres unmarked)	-2.55%
CCC(N)C(=O)N1CCN(c2ccc(F)cc2Cl)CC1 (centres unmarked)	57.35%
C=C(C)COc1cccc(NC(=O)N(C)CCO)c1	35.94%
CC(C)(C)OCCCN	-3.837%
CS(=O)(=O)N1CCCc2c(F)cccc21	-13.11%
CCC(C)NC(=O)c1cnn2cccnc12 (centres unmarked)	-19.41%
Cc1cc(CSCC(=O)NCc2cccs2)on1	11.33%
O=C(NCCCOC(F)F)NCc1cccnc1	-15.47%
Cc1n[nH]c(SCC(=O)Nc2ccccn2)n1	-3.599%
CCc1nn(C)c(CC)c1S(=O)(=O)N1CCCNCC1	4.386%
CC1CN(c2cccc3cnccc23)CCN1 (centres unmarked)	28.85%
OC1CNCCNC1	-16.52%
CCc1ccc(OCn2cc(N)cn2)cc1	77.29%
O=C(CC1OCCc2ccccc21)N1CCSC1 (centres unmarked)	22.72%
OC1CCNC2(CCC2)C1 (centres unmarked)	-7.496%
Cn1nc(CN)c2ccccc21	21.98%
Cc1nnc(NCc2ccc3nonc3c2)o1	9.088%
COCCOC1CCCNC1 (centres unmarked)	-2.079%
COc1cccc(OCC(=O)NCC2CCCO2)c1 (centres unmarked)	48.81%
Cc1cccc(OCCc2noc(C3CNC3)n2)c1	114.8%
CCOCC(=O)NC(C)c1c(F)cccc1OC (centres unmarked)	74.98%
CCN1C[C@H](NC(=O)c2cccn2C(C)C)[C@@H](OC)C1	10.35%
N#Cc1ncn(CC2CCCCO2)c1C#N (centres unmarked)	15.6%
O=C(CCCc1ccccc1)NCc1ccccn1	65.17%
CCCNC(=O)c1cnn(C)c1-n1cccc1	-22.41%
CN(Cc1cnn(C)c1)C(=O)c1cc(Br)c[nH]1	55.2%
CC(Nc1cccc(OC(F)(F)F)c1)C(=O)NC(N)=O (centres unmarked)	54.57%
CC(C)c1ccc(C(N)CNS(C)(=O)=O)cc1 (centres unmarked)	60.17%
COC(=O)c1[nH]cc(-c2ccccc2)c1N	53.68%
CN(CC(=O)NCCC#N)Cc1ccccc1Cl	0.8093%
COc1c(F)ccc(F)c1C(=O)NCCC(O)C(C)C (centres unmarked)	-11.24%
CN(Cc1ccncc1)C(=O)CN	-4.35%
CC(c1cccnc1)N(C)C(=O)c1nccn1C (centres unmarked)	-0.7102%
COc1ccc(CSc2nnc(N)[nH]2)c(Cl)c1	37.34%
CN1CCN(c2cc(C#N)ccn2)CC1	10.81%

Repeated from the top, 6 entries:

{"structure": "CCCNC(=O)CN(C)Cc1ccco1", "Percent Effect": 34.68}
{"structure": "CC(=O)NCCNS(=O)(=O)c1cc(C)ccc1C", "Percent Effect": 21.01}
{"structure": "Cc1cc(C)c(C#N)c(N2C[C@@H]3CCN(C)[C@@H]3C2)n1", "Percent Effect": -9.268}
{"structure": "CC(=O)c1cccc(C(=O)N2C[C@H](C3CC3)[C@@H](N)C2)c1", "Percent Effect": -2.264}
{"structure": "Cc1cnc(N2CCCN(CCO)CC2)nc1C", "Percent Effect": 6.196}
{"structure": "Cc1csc(NC(=O)NC(CO)CC(C)C)n1", "stereo": "centres unmarked", "Percent Effect": 66.9}